Measured values from several laboratories, pooled; numbers as filed in NIAID ChemDB.

Common to all: cytotoxicity tests; cell line: MOLT-4; measure: CC50

Lines come from different laboratories, so protocols vary. Blank or dashed fields: not listed here. CCn: concentration that lowers growth or viability of the cells by n%.

compound,read by,result
O=C1CN=C(c2ccc[nH]2)c2cc(Cl)ccc2N1,,1.6 µg/mL
CCOP(=O)(N[C@@H](CC(C)C)C(=O)OC)OC[C@H]1O[C@@H](n2cc(C)c(=O)[nH]c2=O)C[C@@H]1N=[N+]=[N-],,322 µg/mL
CN=C1CN=C(c2ccc[nH]2)c2cc(Cl)ccc2N1,,2.8 µM
Nc1nc(NC2CC2)c2ncn([C@H]3C=C[C@@H](CO)C3)c2n1,,18 µM
c1cc(CN2CCNCCNCCNCC2)cc(CN2CCNCCNCCNCC2)c1,,17 µM
NNC(=O)c1cc(Br)ccc1NC(=O)C12CC3CC(CC(C3)C1)C2,,4 µM
Nc1nc2c(ncn2[C@H]2CO[C@@H](CO)O2)c(=O)[nH]1,,>500 µM
CN=C1CN=C(c2ccc[nH]2)c2cc(Cl)ccc2N1,,2 µM
O=C(CCCCCCCCCCC(=O)Nc1cc(S(=O)(=O)O)cc2cc(S(=O)(=O)O)cc(O)c12)Nc1cc(S(=O)(=O)O)cc2cc(S(=O)(=O)O)cc(O)c12,,>500 µM
NC(=O)c1c[se]c(C2OC(CO)C(O)C2O)c1,,0.3 µM
Nc1nc2c(ncn2[C@@H]2C[C@H](CO)[C@H]2CO)c(=O)[nH]1,,50 µM
OC[C@@H]1[C@@H](O)[C@H](O)[C@@H](O)CN1C/C=C/c1ccccc1,,>400 µg/mL
Nc1ccn([C@H]2CC[C@@H](CO)O2)c(=O)n1,,0.6 µM
CCOCn1c(Cc2ccccc2)c(C(C)C)c(=O)[nH]c1=O,,181 µM
CCOCn1c(Sc2cc(C)cc(C)c2)c(CC)c(=O)[nH]c1=S,,>100 µM
Nc1nc(=O)n([C@@H]2CS[C@H](CO)O2)cc1F,,>100 µM
CCCN(C)C(=O)Oc1nsnc1-c1c(Cl)cccc1Cl,,215 µM
COc1ccc(Cc2nccc3cc(OC)c(OC)cc23)cc1OC,,4 µg/mL
Nc1ccn([C@H]2CC[C@@H](CO)O2)c(=O)n1,,10 µM
COc1cc(NC(=O)C23CC4CC(CC(C4)C2)C3)c(C(=O)NN)cc1OC,,17.4 µM
c1cc(CN2CCCNCCNCCCNCC2)ccc1CN1CCCNCCNCCCNCC1,,>100 µg/mL
COc1ccccc1N1CCN(c2c(F)cc3c(=O)c(C(=O)O)cn(C4CC4)c3c2OC(F)F)CC1,,6.7 µM
CCCN(C)C(=O)Oc1nsnc1-c1c(Cl)ccc(N)c1Cl,,54 µM
O=S(=O)(O)c1cc(NS(=O)(=O)c2ccc(-c3ccc(S(=O)(=O)Nc4cc(S(=O)(=O)O)c5cccc(S(=O)(=O)O)c5c4)cc3)cc2)cc2c(S(=O)(=O)O)cccc12,,>500 µM
CCNC(=O)c1cc(Cl)ccc1NC(=O)C12CC3CC(CC(C3)C1)C2,,18.6 µM
NC(=O)c1csc(C2OC(CO)C(O)C2O)c1,,2.9 µM
Nc1ccn([C@H]2CC[C@@H](CO)O2)c(=O)n1,,0.1 µg/mL
NOCc1c(F)cccc1Cl,,43.5 µg/mL
CCNC(=O)c1cc(OC)c(OC)cc1NC(=O)C12CC3CC(CC(C3)C1)C2,,26.4 µM
CC(C)=CCN1Cc2cccc3[nH]c(=S)n(c23)C[C@@H]1C,,518 µM
Nc1nc(NC2CC2)c2ncn([C@H]3C=C[C@@H](CO)C3)c2n1,,20 µM
Nc1c(S(=O)(=O)O)cc(Nc2ccc(Nc3nc(Cl)nc(Nc4ccccc4S(=O)(=O)O)n3)c(S(=O)(=O)O)c2)c2c1C(=O)c1ccccc1C2=O,,>10 µM
CC(C)(C)OC(=O)[C@@H]1CCCN1C[C@H](O)[C@H](Cc1ccccc1)NC(=O)[C@H](CC(N)=O)NC(=O)OCc1ccccc1,,214 µg/mL
CCCCCCCCCCCCSCC(COP(=O)([O-])OCC[N+](C)(C)C)OCCCCCCCCO,trypan blue,>100 µM

Repeating the first 3 entries:

compound,read by,result
O=C1CN=C(c2ccc[nH]2)c2cc(Cl)ccc2N1,,1.6 µg/mL
CCOP(=O)(N[C@@H](CC(C)C)C(=O)OC)OC[C@H]1O[C@@H](n2cc(C)c(=O)[nH]c2=O)C[C@@H]1N=[N+]=[N-],,322 µg/mL
CN=C1CN=C(c2ccc[nH]2)c2cc(Cl)ccc2N1,,2.8 µM